Results published in US9717746B2 (priority 2014, dated 2017).

Tested on: hippocampal slices

Compound: CN1CCN(CC(=O)N2c3ccccc3C(=O)Nc3cccnc32)CC1 [pirenzepine]
- protection against DFP neurotoxicity (percentage area of PS recovered): prevents a neurotoxic effect
